Anti-infective test results gathered from many reports (values: NIAID ChemDB through PubChem).

Shared fields: whole-cell or culture tests; agent: Aspergillus fumigatus; read-out: MFC

Neighbouring rows are from separate reports. Blank or dashed fields: not listed here. a–b is a range or a potency band.

compound,strain,method,result
N#CCc1ccccc1,-,broth dilution,300 µg/mL
COc1ccc(NS(=O)(=O)c2ccc(N)cc2)nn1,20 isolates,-,>400 µg/mL
CN(C)CCCC1(c2ccc(F)cc2)OCc2cc(C#N)ccc21,10 clinical isolates,-,312–1250 µg/mL
O=c1oc2ccccc2c(O)c1C(c1c(O)c2ccccc2oc1=O)c1coc2ccccc2c1=O,-,agar diffusion / agar,50 µg/mL
CC(C)=CCC/C(C)=C/CO,MTCC 2550,broth dilution,288 µg/mL
C[C@@H](c1ncncc1F)[C@](O)(Cn1cncn1)c1ccc(F)cc1F,NFI 0159,-,0.25 µg/mL
Cc1ccc2occ(C(c3c(O)c4ccccc4oc3=O)c3c(O)c4ccccc4oc3=O)c(=O)c2c1,-,agar diffusion / agar,100 µg/mL
CCc1nc(N)nc(N)c1-c1ccc(Cl)cc1,20 isolates,-,>4 µg/mL
CC(C)=CCC/C(C)=C/CO,MTCC 2550,broth dilution,288 µg/mL
COc1cccc(CN=C=S)c1,-,broth dilution,150 µg/mL
Nc1ccc(S(=O)(=O)c2ccc(N)cc2)cc1,20 isolates,-,>16 µg/mL
N#CSCc1ccccc1,-,broth dilution,150 µg/mL
C=C1/C=C(\C)[C@H](CC)OC(=O)[C@H](C)C(=O)C(O)(CO)C/C(OC)=C/[C@@H](C)C1,IAM2034,-,>20 µg/mL
COc1cc(Cc2cnc(N)nc2N)cc(OC)c1OC,20 isolates,-,>16 µg/mL
COc1ccccc1CN=C=S,-,broth dilution,150 µg/mL

For reference, 2 entries again:

| compound | strain | method | result |
|---|---|---|---|
| CN(C)CCCC1(c2ccc(F)cc2)OCc2cc(C#N)ccc21 | 10 clinical isolates | - | 312–1250 µg/mL |
| COc1cccc(CN=C=S)c1 | - | broth dilution | 150 µg/mL |